# Measurements from patent US20170204167A1 (INSTITUTE FOR RESEARCH IN BIOMEDICINE, published 2017).
# Where a chain is given by its changes, count along the chain named.
# B1: FI6 variant 2 (antibody, V domains shown)
# VH: QVQLVQSGGGVVQPGRSLRLSCVASGFTFSTYAMHWVRQAPGRGLEWVAVISYDGNYKYYADSVKGRFSISRDNSNNTLHLEMNTLRTEDTALYYCAKDSQLRSLLYFEWLSQGYFDPWGQGTLVTVTS
# VL: DIQMTQSPDSLAVSLGARATINCKSSQSVTFNYKNYLAWYQQKPGQPPKVLIYWASARESGVPDRFSGSGSGTDFTLTISSLQAEDVAVYYCQQHYRTPPTFGQGTKVEIK
# B2: FI6 variant 3 (antibody, V domains shown)
# VH: QVQLVESGGGVVQPGRSLRLSCAASGFTFSTYAMHWVRQAPGKGLEWVAVISYDANYKYYADSVKGRFTISRDNSKNTLYLQMNSLRAEDTAVYYCAKDSQLRSLLYFEWLSQGYFDYWGQGTLVTVSS
# VL: B1 VL with Q3V, A17E, V50L, A57T
# Biological target: HA of H7N7 A/Netherlands/219/03 (influenza A virus H7N7 …)
# Assay: ELISA on recombinant or purified HA
row,Binder,EC50 [µg/mL]
1,B1,0.026
2,B2,0.029
